Primary screen of a compound library

Data taken from ChEMBL document CHEMBL3988442, “University of Dundee, Small-Polar-MMV Screening Library” (2021).

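Whole-cell growth test on Mycobacterium tuberculosis, read after 4 days in a medium based on cholesterol and the lipid DPPC; the read-out is not stated. Compounds at 50 µM. The record gives no direction; compounds that gave an IC50 in retests scored well above the rest, so higher reads as more growth inhibition. About 69,000 compounds were tested under these conditions; 0.54% (about 370) showed 50% or more at least once.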

Each number is a percent effect as filed.
The record does not define 0% and 100%; most values in the screen are far below 50% and negative numbers occur (in some assays of this library far below -100).
Many other results are left out here, so strong results are more common than in the screen.
Two or more numbers in one place are separate tests of the same structure; such repeats can differ widely.

{"structure": "O=C(NCc1ccccc1)N1CCC(Oc2ncccc2Br)CC1", "percent effect": 12.1}
{"structure": "Cc1cc(C)n(-c2ccc(NCCNS(=O)(=O)c3ccccc3)nn2)n1", "percent effect": -8.171}
{"structure": "CCN(C(=O)CCCOC)C(c1ccc(Cl)cc1)c1ccccn1", "stereo": "centres undefined", "percent effect": 73.81}
{"structure": "CCn1nc(C)c2nc(C)nc(N(C)Cc3ccco3)c21", "percent effect": 1.699}
{"structure": "C=Cc1ccc(C(=O)N2CCCC(Nc3ccc(F)cc3)C2)cc1", "stereo": "centres undefined", "percent effect": 31.05}
{"structure": "N#Cc1cccc(N2CCCC(CO)(CCOc3ccccc3)C2)n1", "stereo": "centres undefined", "percent effect": 2.391}
{"structure": "Cc1ccc(NC2CCCN(CCc3ccccc3)C2)nn1", "stereo": "centres undefined", "percent effect": "-20.01 & -10.89"}
{"structure": "OC[C@H]1CN(Cc2c(Cl)cncc2Cl)C[C@H]1CN1CCOCC1", "percent effect": "7.015 & -0.1499"}
{"structure": "Cc1ccoc1C(=O)N1CCCc2c(c(=O)n(C)n2C)C1", "percent effect": "0.8477 & -17.46"}
{"structure": "CC(=O)N1CCCC(c2ccccn2)C1", "stereo": "centres undefined", "percent effect": -5.024}
{"structure": "COC(=O)NCc1ccc(NC(=O)CC2=CCCCC2)cc1", "percent effect": "14.1 & 7.396"}
{"structure": "Clc1ccc(COCC2CCN(Cc3ccccn3)CC2)cc1.O=C(O)C(=O)O", "percent effect": 64.36}
{"structure": "Cc1nc(CN2CCN(CCCc3nc4ccccc4o3)CC2)no1", "percent effect": "-26 & -5.577"}
{"structure": "Cc1nnc(-c2ccc(C(=O)Nc3ccnc(N(C)C)n3)cc2)o1", "percent effect": -18.64}
{"structure": "CCCc1nc(N2CC[C@@H](c3ccc4ccccc4c3)[C@H](O)C2)no1", "percent effect": -4.421}
{"structure": "NS(=O)(=O)CC1CCN(c2ncccc2C(F)(F)F)CC1", "percent effect": -11.74}
{"structure": "Cc1ncsc1CCC(=O)N1CCCC1c1cccnc1", "stereo": "centres undefined", "percent effect": 70.67}
{"structure": "N#Cc1ncn(CCC(=O)Nc2ccccc2F)n1", "percent effect": 1.699}
{"structure": "CC(C)N(C)S(=O)(=O)N(C)Cc1ccc2c(c1)OCO2", "percent effect": 7.57}
{"structure": "COc1cccc(COCC(=O)N2CCCCCC2)c1", "percent effect": -10.42}
{"structure": "CCN(C)S(=O)(=O)NCC1(c2cccc(Br)c2)CC1", "percent effect": -3.168}
{"structure": "OCCOCCNCC1(c2ccc(F)cc2)CCOC1", "stereo": "centres undefined", "percent effect": -4.227}
{"structure": "COc1cc(C)sc1C(=O)NCCC(=O)N(C)c1ccccc1", "percent effect": 12.23}
{"structure": "COc1ccc(CN(C(=O)C2CCCO2)c2ccncc2)cc1", "stereo": "centres undefined", "percent effect": 6.537}
{"structure": "Cl.Fc1ccc(F)c(CN2CCC(c3cc4ncccc4cn3)CC2)c1", "percent effect": 59.49}
{"structure": "CCc1ccccc1NC(=O)CCc1cnn(C)c1", "percent effect": -23.51}
{"structure": "CC(C)Cc1nnc(NCc2ccsc2)o1", "percent effect": 53.63}
{"structure": "Cc1nc(N2CCCC2)nc2c1CCN(Cc1ccco1)CC2.O=C(O)C(F)(F)F", "percent effect": 78.81}
{"structure": "CC(C)(C)c1n[nH]cc1CN1CCc2nc3ccsc3c(=O)n2CC1", "percent effect": -0.6749}
{"structure": "CCOc1ccc(C(F)(F)F)cc1NCc1cc(C)on1", "percent effect": 14.38}
{"structure": "Cc1noc(C(C)Nc2ccc3c(c2)CCC3)n1", "stereo": "centres undefined", "percent effect": 68.3}
{"structure": "Cc1csc(CNC(=O)NCc2ccc3c(c2)OCCO3)n1", "percent effect": 4.005}
{"structure": "Cl.Cl.Clc1cccc(C[C@@H]2NCCC[C@@H]2Nc2cccc(Cl)c2)c1", "percent effect": 111.7}
{"structure": "CCc1nnc(CN(C)c2cc(C)nc3c(C)c(C)nn23)o1", "percent effect": 0.1354}
{"structure": "Cc1c(C(=O)NCC(F)(F)F)nnn1-c1ccccc1Cl", "percent effect": 25.48}
{"structure": "COc1ccc([C@@H]2C[C@H](NC(C)=O)C[C@H](CCc3ccccc3)O2)cn1", "percent effect": "7.557 & 15.61"}
{"structure": "CC(=O)N(C)Cc1cccc(NC(=O)c2cnn(C)c2C)c1", "percent effect": -33.02}
{"structure": "CC(C)N(Cc1ccc(C#N)cc1)C(=O)Nc1ccccn1", "percent effect": 3.324}
{"structure": "CCC(CO)NCc1ccc(-c2ccc(F)cc2)o1.Cl", "stereo": "centres undefined", "percent effect": 10.35}
{"structure": "O=C(NCC1CCCO1)N1CCN(Cc2ccc3c(c2)CCO3)CC1", "stereo": "centres undefined", "percent effect": 8.219}
{"structure": "CN(Cc1nc(Cc2ccccc2F)no1)CC1Cc2ccccc2O1", "stereo": "centres undefined", "percent effect": -3.866}
{"structure": "Cc1nsc(NC2CCOC3(CCCCC3)C2)n1", "stereo": "centres undefined", "percent effect": 34.5}
{"structure": "CCc1ccc(CN2CCOC(Cc3cccc(F)c3)C2)nc1", "stereo": "centres undefined", "percent effect": 52.3}
{"structure": "Cc1ccc(OCC(=O)NCc2ccco2)nc1", "percent effect": "-12.69 & 6.189"}
{"structure": "CCCOc1ccc(NC(=O)NCCC(=O)N(C)C)cc1Cl", "percent effect": -2.163}
{"structure": "CN(C)c1cc(C2CCCN2C(=O)c2noc3c2CCCC3)ccn1", "stereo": "centres undefined", "percent effect": -5.549}
{"structure": "COCCOCCSc1nnc(Cc2ccccc2F)o1", "percent effect": "15.04 & 41.4"}
{"structure": "Cc1noc(C(C)C)c1C(=O)NCc1ccc2c(c1)OCCO2", "percent effect": 8.808}

For reference, 3 entries once more:

Cc1nc(CN2CCN(CCCc3nc4ccccc4o3)CC2)no1 read -26% & -5.577%.
CCC(CO)NCc1ccc(-c2ccc(F)cc2)o1.Cl (centres undefined) read 10.35%.
CC(=O)N(C)Cc1cccc(NC(=O)c2cnn(C)c2C)c1 read -33.02%.